Measurements reported in PubChem BioAssay AID624099 (ICCB-Longwood, 2012).

Screen: 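Knock-downs relieving repression by E2 of an HPV18 LCR luciferase reporter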 (primary screen)
Cells: human C33A cervical carcinoma cells (HPV-negative) stably expressing BPV1 E2 and an HPV18 LCR luciferase reporter
Knock-down reagent: siRNA pool against human genes, 40 nM
Timing: 72 h
Measured: 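HPV18 LCR reporter light per well, converted to plate-wise z-scores that exclude control wells, and averaged over triplicate plates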
Reading the numbers: mean z-score and z-score: higher = stronger reporter signal, weaker E2 silencing
Rule for the call: 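Hit if mean z-score reaches 2 and two or more of three replicate z-scores also reach 2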
Here is a random part of about 21,000 reagents. 497 of them (2.4%) count as active. 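Higher z means weaker E2 silencing; only reporter increases were scored, and knock-downs that hurt cell survival may mask genuine repressor factors.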

For FADS3, what does the deposit list?
mean z-score: -0.72; z-score, replicate A: -0.64; z-score, replicate B: -0.8; z-score, replicate C: -0.72; outcome: inactive

With ZNHIT2, what does the deposit list?
mean z-score: -0.49; z-score, replicate A: -0.95; z-score, replicate B: -0.19; z-score, replicate C: -0.32; outcome: inactive

What did the screen give for OCA2?
mean z-score: 0.51; z-score, replicate A: 0.43; z-score, replicate B: 0.42; z-score, replicate C: 0.69; outcome: inactive

With LOC387930 (retired record), how do the results read?
mean z-score: -2.33; z-score, replicate A: -2.07; z-score, replicate B: -2.54; z-score, replicate C: -2.36; outcome: inactive

Which result is listed for RRP15?
mean z-score: -0.36; z-score, replicate A: -0.23; z-score, replicate B: -0.24; z-score, replicate C: -0.61; outcome: inactive

How did the screen score NDUFA5?
mean z-score: -0.73; z-score, replicate A: -0.71; z-score, replicate B: -0.79; z-score, replicate C: -0.7; outcome: inactive

How did the screen score HIC1?
mean z-score: 0.02; z-score, replicate A: -0.06; z-score, replicate B: -0.06; z-score, replicate C: 0.18; outcome: inactive

What is on record for PRB4?
mean z-score: 4.39; z-score, replicate A: 4.01; z-score, replicate B: 4.64; z-score, replicate C: 4.51; outcome: active

Which result is listed for CNEP1R1?
mean z-score: 0.91; z-score, replicate A: 0.8; z-score, replicate B: 0.57; z-score, replicate C: 1.35; outcome: inactive

Which result is listed for CENPB?
mean z-score: 0.29; z-score, replicate A: 0.28; z-score, replicate B: 0.46; z-score, replicate C: 0.13; outcome: inactive

Which result is listed for BCAN?
mean z-score: 2.08; z-score, replicate A: 2.05; z-score, replicate B: 2.29; z-score, replicate C: 1.91; outcome: active

Which result is listed for PCDHB15?
mean z-score: -0.4; z-score, replicate A: -0.41; z-score, replicate B: -0.43; z-score, replicate C: -0.36; outcome: inactive

What is on record for MT-ND4L?
mean z-score: 1.92; z-score, replicate A: 2.25; z-score, replicate B: 1.95; z-score, replicate C: 1.55; outcome: inactive

Which result is listed for PLGRKT?
mean z-score: 1.44; z-score, replicate A: 1.42; z-score, replicate B: 1.29; z-score, replicate C: 1.61; outcome: inactive

With AMBRA1, what was measured?
mean z-score: 0.28; z-score, replicate A: 0.53; z-score, replicate B: 0.25; z-score, replicate C: 0.06; outcome: inactive

With MYSM1, what was measured?
mean z-score: 0.16; z-score, replicate A: 0.25; z-score, replicate B: 0.07; z-score, replicate C: 0.17; outcome: inactive

Which result is listed for LOC343484 (retired record)?
mean z-score: 0.53; z-score, replicate A: 0.61; z-score, replicate B: 0.27; z-score, replicate C: 0.72; outcome: inactive

Which result is listed for DPY19L2P2?
mean z-score: 1.22; z-score, replicate A: 1.28; z-score, replicate B: 1.18; z-score, replicate C: 1.2; outcome: inactive

For WFDC6, what was measured?
mean z-score: -0.51; z-score, replicate A: -0.35; z-score, replicate B: -0.56; z-score, replicate C: -0.63; outcome: inactive

How did the screen score VCAN?
mean z-score: 0.28; z-score, replicate A: 0.07; z-score, replicate B: 0.48; z-score, replicate C: 0.3; outcome: inactive

For CFHR1, how do the results read?
mean z-score: -0.13; z-score, replicate A: -0.13; z-score, replicate B: -0.04; z-score, replicate C: -0.21; outcome: inactive

Reformatted: results already given.
{"gene symbol": "LOC387930 (retired record)", "mean z-score": -2.33, "z-score, replicate A": -2.07, "z-score, replicate B": -2.54, "z-score, replicate C": -2.36, "outcome": "inactive"}
{"gene symbol": "RRP15", "mean z-score": -0.36, "z-score, replicate A": -0.23, "z-score, replicate B": -0.24, "z-score, replicate C": -0.61, "outcome": "inactive"}
{"gene symbol": "NDUFA5", "mean z-score": -0.73, "z-score, replicate A": -0.71, "z-score, replicate B": -0.79, "z-score, replicate C": -0.7, "outcome": "inactive"}
